# Test results: patent US20170128489A1 (priority 2014, published 2017)
# Tested on: influenza A (S31N), A/California/07/2009
# Test: Miniplaque assay (Part 2) in MDCK cells
# Type: cell-based, Influenza A virus
# Conditions: calculated from the percent block data
substance,measurement,value
Copper pinanamine imidazole,EC50,19.9 µM
